Laboratory results published in the NIST ThermoML archive (doi:10.1021/acs.jced.5b00343).

Assay: xn = mol fraction of the nth substance listed
Conditions: 101 kPa, Liquid; for speed of sound: Frequency=1.5 MHz, Sing-around technique in a fixed-path interferometer; for mass density: Vibrating tube method

CCCCOP(=O)(OCCCC)OCCCC [tributyl phosphate] + CCCCO
Conditions	mass density, 303.15 K [kg/m3]	mass density, 308.15 K [kg/m3]	mass density, 313.15 K [kg/m3]	mass density, 318.15 K [kg/m3]	mass density, 323.15 K [kg/m3]	speed of sound, 303.15 K [m/s]	speed of sound, 308.15 K [m/s]	speed of sound, 313.15 K [m/s]	speed of sound, 318.15 K [m/s]	speed of sound, 323.15 K [m/s]
x1 = 0.05	823.73 ± 0.14	819.76 ± 0.14	815.77 ± 0.15	811.74 ± 0.15	807.68 ± 0.15	1223 ± 1.5	1206.5 ± 1.5	1189.6 ± 1.5	1172.9 ± 1.5	1156.8 ± 1.5
x1 = 0.1002	841.91 ± 0.14	837.88 ± 0.14	833.82 ± 0.14	829.73 ± 0.14	825.61 ± 0.15	1223.3 ± 1.5	1206.7 ± 1.5	1189.8 ± 1.5	1173.1 ± 1.5	1156.9 ± 1.5
x1 = 0.1503	857.35 ± 0.14	853.27 ± 0.14	849.17 ± 0.14	845.04 ± 0.14	840.88 ± 0.15	1223.6 ± 1.5	1206.9 ± 1.5	1189.9 ± 1.5	1173.2 ± 1.5	1157 ± 1.5
x1 = 0.202	871.07 ± 0.14	866.94 ± 0.14	862.78 ± 0.14	858.61 ± 0.15	854.41 ± 0.15	1223.8 ± 1.5	1207.1 ± 1.5	1190.1 ± 1.5	1173.3 ± 1.5	1157.1 ± 1.5
x1 = 0.2502	882.23 ± 0.14	878.06 ± 0.14	873.88 ± 0.15	869.68 ± 0.15	865.45 ± 0.15	1224.3 ± 1.5	1207.5 ± 1.5	1190.4 ± 1.5	1173.6 ± 1.5	1157.4 ± 1.5
x1 = 0.3006	892.53 ± 0.15	888.34 ± 0.15	884.13 ± 0.15	879.91 ± 0.15	875.67 ± 0.15	1225.3 ± 1.5	1208.5 ± 1.5	1191.5 ± 1.5	1174.6 ± 1.5	1158.2 ± 1.5
x1 = 0.3502	901.62 ± 0.15	897.41 ± 0.15	893.19 ± 0.15	888.95 ± 0.16	884.7 ± 0.16	1226.4 ± 1.5	1209.6 ± 1.5	1192.6 ± 1.5	1175.6 ± 1.5	1159.4 ± 1.5
x1 = 0.4	909.79 ± 0.16	905.56 ± 0.16	901.34 ± 0.16	897.08 ± 0.16	892.83 ± 0.16	1227.6 ± 1.5	1210.8 ± 1.5	1193.8 ± 1.5	1177 ± 1.5	1160.7 ± 1.5
x1 = 0.4502	917.29 ± 0.16	913.05 ± 0.16	908.81 ± 0.17	904.55 ± 0.17	900.29 ± 0.17	1229 ± 1.5	1212.2 ± 1.5	1195.2 ± 1.5	1178.4 ± 1.5	1162.2 ± 1.5
x1 = 0.5002	924.06 ± 0.17	919.82 ± 0.17	915.56 ± 0.17	911.3 ± 0.17	907.03 ± 0.18	1230.6 ± 1.5	1213.7 ± 1.5	1196.7 ± 1.5	1180 ± 1.5	1163.8 ± 1.5
x1 = 0.5506	930.31 ± 0.17	926.07 ± 0.18	921.81 ± 0.18	917.55 ± 0.18	913.28 ± 0.18	1232.3 ± 1.5	1215.4 ± 1.5	1198.5 ± 1.5	1181.8 ± 1.5	1165.5 ± 1.5
x1 = 0.6005	935.99 ± 0.18	931.73 ± 0.18	927.47 ± 0.18	923.2 ± 0.18	918.93 ± 0.19	1234 ± 1.5	1217.1 ± 1.5	1200.3 ± 1.5	1183.5 ± 1.5	1167.4 ± 1.5
x1 = 0.6502	941.16 ± 0.19	936.9 ± 0.19	932.63 ± 0.19	928.36 ± 0.19	924.09 ± 0.19	1235.7 ± 1.5	1218.9 ± 1.5	1202 ± 1.5	1185.4 ± 1.5	1169.2 ± 1.5
x1 = 0.7002	945.95 ± 0.2	941.68 ± 0.2	937.41 ± 0.2	933.13 ± 0.2	928.85 ± 0.21	1237.3 ± 1.5	1220.5 ± 1.5	1203.6 ± 1.5	1187 ± 1.5	1170.9 ± 1.5
x1 = 0.7493	950.33 ± 0.21	946.06 ± 0.21	941.78 ± 0.22	937.49 ± 0.22	933.2 ± 0.22	1238.9 ± 1.5	1222 ± 1.5	1205.2 ± 1.5	1188.6 ± 1.5	1172.5 ± 1.5
x1 = 0.8001	954.47 ± 0.23	950.2 ± 0.23	945.93 ± 0.23	941.65 ± 0.23	937.36 ± 0.23	1240.4 ± 1.5	1223.5 ± 1.5	1206.8 ± 1.5	1190.2 ± 1.5	1174.2 ± 1.5
x1 = 0.8507	958.35 ± 0.24	954.07 ± 0.24	949.79 ± 0.24	945.5 ± 0.24	941.22 ± 0.25	1241.9 ± 1.5	1225.1 ± 1.5	1208.3 ± 1.5	1191.7 ± 1.5	1175.7 ± 1.5
x1 = 0.9009	961.93 ± 0.26	957.64 ± 0.26	953.36 ± 0.26	949.06 ± 0.26	944.78 ± 0.26	1243.5 ± 1.5	1226.6 ± 1.5	1210 ± 1.5	1193.4 ± 1.5	1177.4 ± 1.5
x1 = 0.9504	965.28 ± 0.28	960.99 ± 0.28	956.69 ± 0.28	952.39 ± 0.28	948.1 ± 0.28	1245.1 ± 1.5	1228.3 ± 1.5	1211.6 ± 1.5	1195.1 ± 1.5	1179.2 ± 1.5

Numbers after ± are expanded uncertainties.
